Pooled drug test results. Numbers come from NIAID ChemDB, via PubChem.

All rows: tests on isolated targets; agent: HIV-1; protein: Reverse transcriptase; read by: nucleotide incorporation; measure: IC50

Rows are shuffled and stem from different studies.

compound	strain or isolate	changes	value
CC(=O)COc1cc2c(c(O)c1Br)C(=O)C1C(O)=CC(C)=CC1C2=O	-	-	22 µM
CC(C)Nc1cccnc1N(C)CCCCN(C)C(=O)c1cc2ccccc2[nH]1	-	-	<100 µM
CC1=C(C(=O)Nc2ccc(Cl)c(C(=O)OC(C)C)c2)SCCO1	-	-	0.18 µM
CCCCOC(=O)N1c2ccccc2C=CC1C#N	-	-	8 µM
CC(C)Nc1cccnc1N1CCCN(C(=O)c2cc3ccccc3[nH]2)CC1	-	-	<100 µM
N#CC1C=Cc2ccccc2N1C(=O)c1ccc(Cl)cc1	-	-	5.5 µM
COc1ccc(Br)cc1CCNC(=S)Nc1nccs1	-	-	0.003 µM
Cc1cc(C(=O)O)ccc1N=Nc1c(S(=O)(=O)O)cc2cc(NC(=O)Nc3ccc4c(O)c(N=Nc5ccc(C(=O)O)cc5C)c(S(=O)(=O)O)cc4c3)ccc2c1O	-	-	0.042 µM
O=C1Nc2ccc(Cl)cc2C(C#CC2CCCCC2)(C(F)(F)F)O1	-	-	0.083 µM
CCCCCCC(O)C(=O)O[C@H]1CC(C)(C)[C@@H]2CC=C(C=O)C3[C@@H](O)OC(=O)[C@@]32[C@H]1O	-	-	190 µM
Cc1cc(C(=O)Nc2ccc(S(=O)(=O)O)c3cc(S(=O)(=O)O)cc(S(=O)(=O)O)c23)ccc1NC(=O)Nc1ccc(C(=O)Nc2ccc(S(=O)(=O)O)c3cc(S(=O)(=O)O)cc(S(=O)(=O)O)c23)cc1C	IIIB	-	70 µg/mL
CC1(C)CC[C@]2(C(=O)O)CC[C@]3(C)C(=CC[C@@H]4[C@@]5(C)C[C@@H](O)[C@@H]6OC(=O)c7cc(O)c(O)c(O)c7-c7c(cc(O)c(O)c7O)C(=O)OC[C@@]6(CO)[C@@H]5CC[C@]43C)[C@@H]2C1	-	-	>20 µg/mL
Nc1nc2c(ncn2[C@H]2CC[C@@H](COP(=O)(O)OP(=O)(O)OP(=O)(O)O)O2)c(=O)[nH]1	-	RT-Y181C	0.15 µM
CCCOC(=O)N1c2ccccc2C=CC1C#N	-	-	13.9 µM
Fc1cccc(Cl)c1CCNC(=S)Nc1nccs1	-	-	<1 µg/mL
O=C1O[C@@H]2[C@@H](OC(=O)c3cc(O)c(O)c(O)c3-c3c1cc(O)c(O)c3O)[C@@H](O)O[C@@H]1COC(=O)c3cc(O)c(O)c(O)c3-c3c(O)c(O)c4oc(=O)c5c(c(O)c(O)c6oc(=O)c3c4c65)-c3c(cc(O)c(O)c3O)C(=O)O[C@@H]21	-	-	<20 µg/mL
CCNc1cccnc1N1CCN(Cc2cc(C(C)C)c(O)c(C(C)C)c2)CC1	-	-	>100 µM
N#CC1C=Cc2cc([N+](=O)[O-])ccc2N1C(=O)OCCBr	-	-	>50 µM
CC(CNC(=S)Nc1nccs1)c1ccccc1	-	-	>10 µM
CC(C)COC(=O)N1c2ccccc2C=CC1C#N	-	-	7.8 µM
O=C(O[C@@H]1O[C@@H]2COC(=O)c3cc(O)c(O)c(O)c3-c3c(cc(O)c(O)c3O)C(=O)O[C@H]2[C@@H]2OC(=O)c3cc(O)c(O)c(O)c3-c3c(cc(O)c(O)c3O)C(=O)O[C@@H]12)c1cc(O)c(O)c(O)c1	-	-	>20 µg/mL
CC(C)OC(=O)N1c2ccc([N+](=O)[O-])cc2C=CC1C#N	-	RT-P236L	8.1 µM
O=C1OC2C(COC(=O)c3cc(O)c(O)c(O)c3)OC(OC(=O)c3cc(O)c(O)c(O)c3)C(OC(=O)c3cc(O)c(O)c4c3[C@@H]3C1=CC(=O)C(O)(O)C3(O)O4)C2OC(=O)c1cc(O)c(O)c(O)c1	-	-	>20 µg/mL
O=C(NCCc1ccccc1)NCc1ccoc1	-	-	>10 µg/mL
C[C@@H]1Cc2c(-c3cc(-c4ccc5ccccc5c4O)c(O)c4ccccc34)c(O)cc(O)c2[C@@H](C)N1	-	-	1000 µM
CCNc1cccnc1N1CCN(Cc2cc(C)c(OC)c(C)c2)CC1	-	-	<100 µM
O=C(Nc1cccc(C(=O)Nc2ccc(C(=O)Nc3cc(S(=O)(=O)O)cc4cc(S(=O)(=O)O)cc(S(=O)(=O)O)c34)cc2)c1)Nc1cccc(C(=O)Nc2ccc(C(=O)Nc3cc(S(=O)(=O)O)cc4cc(S(=O)(=O)O)cc(S(=O)(=O)O)c34)cc2)c1	IIIB	-	55 µg/mL
CCCCCCCCCCCCCCc1sc(NC(=O)NCCc2ccccc2)nc1-c1ccc(Cl)cc1	-	-	>10 µg/mL
O=S(=O)(O)c1cc(Nc2ccnc3cc(Cl)ccc23)c2c(S(=O)(=O)O)cc(S(=O)(=O)O)cc2c1	IIIB	-	50 µg/mL
CC(=O)Nc1cccnc1N1CCN(C(=O)c2cc3ccccc3[nH]2)CC1	-	-	>100 µM
C#CCOc1cc(NC(=S)c2ccoc2C)ccc1Cl	-	-	3.039 µM
O=C(O)/C=C/c1ccc(O)c(O)c1	-	-	>1000 µM
Cc1cc(C)c(C(=O)Nc2ccc(S(=O)(=O)O)c3cc(S(=O)(=O)O)cc(S(=O)(=O)O)c23)c(C)c1NC(=O)c1cccc(NC(=O)Nc2cccc(C(=O)Nc3c(C)cc(C)c(C(=O)Nc4ccc(S(=O)(=O)O)c5cc(S(=O)(=O)O)cc(S(=O)(=O)O)c45)c3C)c2)c1	IIIB	-	42 µg/mL
CCn1c2cc(=NN=[N-])ccc-2[n+](C)c(=O)c2cccnc21	-	-	0.085 µM
CCc1ccc(C(=O)Nc2ccc(S(=O)(=O)O)c3cc(S(=O)(=O)O)cc(S(=O)(=O)O)c23)cc1NC(=O)c1cccc(NC(=O)Nc2cccc(C(=O)Nc3cc(C(=O)Nc4ccc(S(=O)(=O)O)c5cc(S(=O)(=O)O)cc(S(=O)(=O)O)c45)ccc3CC)c2)c1	IIIB	-	62 µg/mL
CC1(C)C[C@H](O)[C@H](O)[C@]23C(=O)O[C@H](O)[C@H]2C(C=O)=CC[C@@H]13	-	-	>338 µM
C=CC1(C(F)(F)F)OC(=O)Nc2ccc(Cl)cc21	A17	RT-K103N Y181C	30 µM
Cc1occc1C(=S)Nc1ccc(Cl)c(OCC(C)(C)C)c1	-	-	16.8 µM
COc1cc2[nH]c(C(=O)N3CCN(c4ncccc4NC(C)C)CC3)cc2cc1F	-	-	<100 µM
O=C(c1cc2ccccc2[nH]1)N1CCN(c2ncccc2NCC2CC2)CC1	-	-	<100 µM
O=C(Nc1cccc(C(=O)Nc2ccc(P(=O)(O)O)cc2)c1)Nc1cccc(C(=O)Nc2ccc(P(=O)(O)O)cc2)c1	IIIB	-	5 µg/mL
O=C(OCC1O[C@@H](O)C(O)(COC(=O)c2cc(O)c(O)c(O)c2)C1O)c1cc(O)c(O)c(O)c1	-	-	>20 µg/mL
Cc1ccnc(NC(=O)NCCc2ccccc2)n1	-	-	>10 µg/mL
CC(C)COC(=O)N1c2ccc([N+](=O)[O-])cc2C=CC1C#N	-	RT-P236L	14.6 µM
O=C(O[C@@H]1O[C@@H]2COC(=O)c3cc(O)c(O)c(O)c3-c3c(cc(O)c(O)c3O)C(=O)O[C@H]2[C@H](O)[C@H]1O)c1cc(O)c(O)c(O)c1	-	-	<20 µg/mL
CN(C)c1nc(N)nc2c1ncn2[C@H]1C[C@H](N=[N+]=[N-])[C@@H](CO)O1	-	-	23.4 µM
O=C(c1cc2ccccc2[nH]1)N1CCN(c2ncccc2[N+](=O)[O-])CC1	-	-	>100 µM
CC(C)=CCOc1cc(NC(=S)c2ccoc2C)ccc1Cl	-	RT-W229Y	0.48 µM
O=C(NCCc1ccccc1)Nc1nc2c(Cl)cccc2s1	-	-	>10 µg/mL
Cc1ccc(C(=O)Nc2ccc(S(=O)(=O)O)c3cc(S(=O)(=O)O)cc(S(=O)(=O)O)c23)cc1NC(=O)c1cccc(NC(=O)c2ccc(C(=O)Nc3cccc(C(=O)Nc4cc(C(=O)Nc5ccc(S(=O)(=O)O)c6cc(S(=O)(=O)O)cc(S(=O)(=O)O)c56)ccc4C)c3)cc2)c1	IIIB	-	39 µg/mL
CCc1cc(NCc2nc3c(C)ccc(C)c3o2)c(=O)[nH]c1C	-	RT-Y188F	0.047 µM
COc1ccc2c(c1)C=CC(C#N)N2C(=O)OC(C)C	-	RT-P236L	14.6 µM
Nc1ncnc2c1ncn2[C@H]1CC[C@@H](COP(=O)(O)OP(=O)(O)OP(=O)(O)O)O1	-	RT-K65R	>100 µM
CC(C)Nc1cccnc1N(C)CCCN(C)C(=O)c1cc2ccccc2[nH]1	-	-	<100 µM
O=C1OCC2OC(=O)c3cc(O)c(O)c(O)c3-c3c(O)c(O)c(O)c4c3C(=O)OC(C2OC(=O)c2cc(O)c(O)c(O)c2-c2c1cc(O)c(O)c2O)C1OC(=O)c2c-4c(O)c(O)c(O)c2[C@H]1O	-	-	>20 µg/mL
CC(=O)COc1c(Br)c(O)c2c(c1Br)C(=O)C1C=C(C)C=C(O)C1C2=O	-	-	17 µM

For reference, 6 entries again:

compound,strain or isolate,changes,value
CCNc1cccnc1N1CCN(Cc2cc(C)c(OC)c(C)c2)CC1,-,-,<100 µM
O=C(NCCc1ccccc1)Nc1nc2c(Cl)cccc2s1,-,-,>10 µg/mL
CCn1c2cc(=NN=[N-])ccc-2[n+](C)c(=O)c2cccnc21,-,-,0.085 µM
N#CC1C=Cc2ccccc2N1C(=O)c1ccc(Cl)cc1,-,-,5.5 µM
CC(C)=CCOc1cc(NC(=S)c2ccoc2C)ccc1Cl,-,RT-W229Y,0.48 µM
O=C(c1cc2ccccc2[nH]1)N1CCN(c2ncccc2NCC2CC2)CC1,-,-,<100 µM

An empty or dashed field is not shown. ICn: concentration for n% inhibition.